Assay results: US3965109A, “Certain aryl amino pyridines” (priority 1971, dated 1976)

Legend:
Format in all cases: in vivo
[1] = test system: Plasmopara viticola (vine); assay: Fungicidal test against foliar disease C (foliage spray plus soil drench); settings: 100 ppm spray and drench; 10 days
[2] = test system: Puccinia recondita (wheat); assay: Fungicidal test against foliar disease A (foliage spray plus soil drench); settings: 100 ppm spray and drench; 10 days
[3] = test system: Piricularia oryzae (rice); assay: Fungicidal test against foliar disease E (foliage spray plus soil drench); settings: 100 ppm spray and drench; 7 days
[4] = test system: Phytophthora infestans (tomato); assay: Fungicidal test against foliar disease B (foliage spray plus soil drench); settings: 100 ppm spray and drench; 3 days

O=[N+]([O-])c1cc([N+](=O)[O-])c(Nc2c(F)c(F)nc(F)c2F)c([N+](=O)[O-])c1
Amount of disease grading, disease C (Table 4) [1]: 3 (0 to 5)
Amount of disease grading, disease A (Table 4) [2]: 0 (61 to 100)
Amount of disease grading, disease E (Table 4) [3]: 0 (61 to 100)
Amount of disease grading, disease B (Table 4) [4]: 3 (0 to 5)
